# Data reported in patent publication US20070172471A1, “Method for identifying an anti- streptococcal agent and its use for treating streptococcal infections” (Hansa Medical AB, priority 2003, published 2007).
# System: fibrinogen in human plasma
# Experiment: Precipitation assay
substance,measurement,setting,value
M1 protein: recombinant M1 protein of Streptococcus pyogenes expressed in E. coli (SEQ ID NO: 1),precipitation in plasma,"M1 protein 1 μg/ml, plasma diluted 1/10, FIG. 3A",provoked a visible precipitation
same,precipitation in fibrinogen-deficient plasma,data not shown,no precipitation occurred
same,precipitation in fibrinogen solution,"purified M1 protein and fibrinogen, same concentrations as in plasma, FIG. 3C",a precipitate was formed
